Data from patent US20210009716A1 (IN3BIO, published 2021).

Target: EGFR (ERB1), the natural receptor for EGF (Homo sapiens (Human), UniProt P00533 25-1210)
Test: not described

B1: synthetic NRG-CTB molecule (ligand)
chain: GTSHLVKCPLSHEAYCVNGGECFMVKDLSNPSRYLCKCPNEFTGDRCQNYVMASF
notes: also called NRG-BVN hybrid polypeptide; synthetic NRG-BVN hybrid polypeptide
binding result: no binding
